Pooled drug test results. Numbers come from NIAID ChemDB, via PubChem.

Shared fields: target-level tests; agent: HIV-1; protein: Protease; method: HPLC; measure: IC50

ICn is the concentration giving n% inhibition. Lines come from different laboratories, so protocols vary. An empty or dashed field is not shown.

structure,setting,value
C[C@H](CC[C@H](O)C(C)(O)CO)[C@H]1CC[C@@]2(C)C3=CC[C@H]4C(C)(C)C(=O)CC[C@]4(C)C3=CC[C@]12C,,50 µM
C[C@H](NC(=O)OCc1ccccc1)C(=O)N[C@@H](Cc1ccccc1)[C@H](O)CNC[C@@H](O)[C@H](Cc1ccccc1)NC(=O)OC(C)(C)C,pH 5.5,<10 µM
C[C@@H]1CC[C@]2(C(=O)O[C@@H]3O[C@H](CO)[C@@H](O)[C@H](O)[C@H]3O)CC[C@]3(C)C(=CC[C@@H]4[C@@]5(C)C[C@@H](O)[C@H](O)C(C)(C)[C@@H]5CC[C@]43C)[C@@H]2[C@]1(C)O,,100 µM
C/C(=C\CC[C@@H](C)[C@H]1CC(=O)[C@@]2(C)C3=C(C(=O)C[C@]12C)[C@@]1(C)CC[C@H](O)C(C)(C)[C@@H]1CC3)C(=O)O,,20 µM
CC(C)(C)OC(=O)N[C@@H](Cc1ccccc1)[C@H](O)CNC[C@@H](O)[C@H](Cc1ccccc1)NC(=O)OC1(C)CCCC1,pH 5.5,<10 µM
CSCC[C@H](NC(=O)[C@H](CCO)N(Cc1ccccc1)Cc1ccccc1)C(=O)NC(C)(C)C,,1.73 µM
COc1ccc(C(O)C(C)Oc2ccc([C@H]3O[C@H](c4ccc(OC(C)C(O)c5ccc6c(c5)OCO6)c(OC)c4)[C@H](C)[C@H]3C)cc2OC)cc1OC,,>125 µM
C[C@H](CC(=O)C[C@@H](C)[C@H]1C[C@H](O)[C@@]2(C)C3=C(C(=O)C[C@]12C)[C@@]1(C)CCC(=O)C(C)(C)[C@@H]1CC3)C(=O)O,,70 µM
O=C1OCC(O)C(C2OC(=O)c3cc(O)c(O)c(O)c3-c3c(O)c(O)c(O)c4c3C(=O)OC2C4c2c(O)cc(O)c3c2OC(c2ccc(O)c(O)c2)C(O)C3)OC(=O)c2cc(O)c(O)c(O)c2-c2c1cc(O)c(O)c2O,,77 µM
CC(C)(C)OC(=O)N[C@@H](Cc1ccccc1)[C@H](O)CNC[C@@H](O)[C@H](Cc1ccccc1)NC(=O)OC[C@@H](O)CO,pH 5.5,<10 µM
CSCC[C@H](NC(=O)[C@H](CO)NCc1ccccc1)C(=O)NC(C)(C)C,,3.7 µM
COC(=O)[C@H](Cc1ccccc1)NC(=O)[C@H](CCC(=O)O)NC(=O)C[C@H](O)C(CC(C)C)NC(=O)[C@@H](NC(=O)[C@H](Cc1c[nH]c2ccccc12)NC(C)=O)C(C)C,,0.01 µM
CC(C)[C@H](NC(=O)OC[C@H](O)CO)C(=O)N[C@@H](Cc1ccccc1)[C@H](O)CNC[C@@H](O)[C@H](Cc1ccccc1)NC(=O)OC(C)(C)C,pH 5.5,<10 µM
CC(C)CC(NC(=O)[C@@H](NC(=O)[C@H](Cc1c[nH]c2ccccc12)NC(=O)CCCCC(=O)Nc1ccn([C@H]2CS[C@@H](CO[Si](c3ccccc3)(c3ccccc3)C(C)(C)C)O2)c(=O)n1)C(C)C)[C@@H](O)CC(=O)NC(Cc1ccccc1)c1ccccc1,,0.45 µM
CC(C)[C@H](NC(=O)OC(C)(C)C)C(=O)N[C@@H](Cc1ccccc1)[C@H](O)CNC[C@@H](O)[C@H](Cc1ccccc1)NC(=O)OC(C)(C)C,pH 5.5,~10 µM
CC(C)C[C@H](NC(=O)[C@@H](NC(=O)[C@@H](N)Cc1c[nH]c2ccccc12)C(C)C)[C@@H](O)CC(=O)NC(Cc1ccccc1)c1ccccc1,,0.02 µM
O=c1c(O[C@@H]2O[C@H](CO)[C@H](O)[C@H](O)[C@H]2O)c(-c2ccc(O)c(O)c2)oc2cc(O)cc(O)c12,,>100 µM
CSCC[C@H](NC(=O)[C@H](CCO)N(Cc1ccccc1)C(=O)[C@H](CC(C)C)NC(=O)OCC1c2ccccc2-c2ccccc21)C(=O)NC(C)(C)C,,0.17 µM
Oc1cc(O)cc(Oc2c(O)cc(O)c3c2Oc2c(O)cc4oc5c(Oc6cc(O)cc(O)c6)c(O)cc(O)c5c4c2O3)c1,,>100 µM
CC(C)[C@H](NC(=O)[C@H](CCCN=C(N)N)NC(=O)N[C@@H](Cc1ccccc1)C(=O)O)C(=O)N[C@H](C=O)Cc1ccccc1,,1.3 µM
CC(C)(C)OC(=O)N[C@@H](Cc1ccccc1)[C@H](O)CNC[C@@H](O)[C@H](Cc1ccccc1)NC(=O)OC[C@H](O)CO,pH 5.5,<10 µM
C[C@H](CCC=C(CO)CO)[C@H]1CC[C@@]2(C)C3=CC[C@H]4C(C)(C)C(=O)CC[C@]4(C)C3=CC[C@]12C,,>500 µM
CCC(C)(C)OC(=O)N[C@@H](Cc1ccccc1)[C@H](O)CNC[C@@H](O)[C@H](Cc1ccccc1)NC(=O)OC(C)(C)CC,pH 5.5,<10 µM
COC(=O)[C@H](NC(=O)[C@H](NC(=O)[C@H](Cc1ccccc1)C[C@H](O)[C@H](Cc1ccccc1)NC(=O)[C@H](C)NC(=O)[C@H](C)N)C(C)C)C(C)C,,10 µM